{"source": "PubChem BioAssay AID624099 (ICCB-Longwood, 2012)", "purpose": "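Human genes that papillomavirus E2 requires to repress the HPV18 LCR promoter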 (primary screen)", "cells": "human C33A cervical carcinoma cells (HPV-negative) stably expressing BPV1 E2 and an HPV18 LCR luciferase reporter", "reagents": "siRNA pool against human genes, 40 nM", "timing": "72 h", "read-out": "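Per-well luciferase luminescence, z-scored on each plate against the plate mean and SD with control wells left out, then averaged across three replicate plates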", "reading the numbers": "mean z-score and z-score: higher = stronger reporter signal, weaker E2 silencing", "call rule": "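Hit if mean z-score reaches 2 and two or more of three replicate z-scores also reach 2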", "note": "Here is one part, drawn at random, of about 21,000 deposited reagents. In the full data, 497 (2.4%) were called active. 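Higher z means weaker E2 silencing; only reporter increases were scored, and knock-downs that hurt cell survival may mask genuine repressor factors.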 Entries without a mark were called inactive."}
The opening 2 entries, ahead of the listing:
{"gene": "TUBGCP4", "mean z-score": -1.07, "z-score, replicate A": -1.02, "z-score, replicate B": -1.08, "z-score, replicate C": -1.11}
{"gene": "LOC389067 (retired record)", "mean z-score": 0.51, "z-score, replicate A": 0.54, "z-score, replicate B": 0.51, "z-score, replicate C": 0.49}

The list itself, from the first entry:
{"gene": "TUBGCP4", "mean z-score": -1.07, "z-score, replicate A": -1.02, "z-score, replicate B": -1.08, "z-score, replicate C": -1.11}
{"gene": "LOC389067 (retired record)", "mean z-score": 0.51, "z-score, replicate A": 0.54, "z-score, replicate B": 0.51, "z-score, replicate C": 0.49}
{"gene": "BBS2", "mean z-score": 0.53, "z-score, replicate A": 0.32, "z-score, replicate B": 0.55, "z-score, replicate C": 0.71}
{"gene": "H2AP", "mean z-score": 0.25, "z-score, replicate A": 0.37, "z-score, replicate B": 0.06, "z-score, replicate C": 0.32}
{"gene": "LOC388491 (retired record)", "mean z-score": -0.28, "z-score, replicate A": -0.29, "z-score, replicate B": -0.21, "z-score, replicate C": -0.35}
{"gene": "AZIN1", "mean z-score": 0.69, "z-score, replicate A": 1.14, "z-score, replicate B": 0.42, "z-score, replicate C": 0.51}
{"gene": "OR52A5", "mean z-score": -0.26, "z-score, replicate A": -0.26, "z-score, replicate B": -0.29, "z-score, replicate C": -0.22}
{"gene": "OR6C4", "mean z-score": 0.41, "z-score, replicate A": 0.38, "z-score, replicate B": 0.65, "z-score, replicate C": 0.19}
{"gene": "RASSF8", "mean z-score": 0.65, "z-score, replicate A": 0.78, "z-score, replicate B": 0.65, "z-score, replicate C": 0.51}
{"gene": "RNF187", "mean z-score": 1.33, "z-score, replicate A": 1.79, "z-score, replicate B": 1.17, "z-score, replicate C": 1.02}
{"gene": "CTAG2", "mean z-score": -0.16, "z-score, replicate A": 0.34, "z-score, replicate B": -0.66, "z-score, replicate C": -0.17}
{"gene": "MIS18BP1", "mean z-score": 1.33, "z-score, replicate A": 1.22, "z-score, replicate B": 1.25, "z-score, replicate C": 1.52}
